The labels stand for the following.
B1: NS1-ED (R140A) (domain or fragment)
chain: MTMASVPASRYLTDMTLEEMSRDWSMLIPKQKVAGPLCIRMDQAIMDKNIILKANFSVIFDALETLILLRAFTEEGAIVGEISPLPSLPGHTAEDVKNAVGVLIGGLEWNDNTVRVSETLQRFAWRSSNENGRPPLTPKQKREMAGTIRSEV
B2: His-tagged TRIM25-CC (coiled-coil domain of TRIM25, 189-379) (domain or fragment)
chain: ASLSQASADLEATLRHKLTVMYSQINGASRALDDVRNRQQDVRMTANRKVEQLQQEYTEMKALLDASETTSTRKIKEEEKRVNSKFDTIYQILLKKKSEIQTLKEEIEQSLTKRDEFEFLEKASKLRGISTKPVYIPEVELNHKLIKGIHQSTIDLKNELKQCIGRLQEPTPSSGDPGEHDPASTHKSTRP

Assay [1] addresses His-tagged TRIM25-CC (coiled-coil domain of TRIM25, 189-379) (UniProt Q14258). In words: BLI. On the technique in general: In BLI a coated tip is dipped into the sample, and binding shifts an interference pattern.
For assay [2], the target named is B2.
For assay [3], the target named is NS1-FL (W187A), strain A/Puerto Rico/8/1934 H1N1 (influenza A virus, strain A/Puerto …, UniProt P03496 1-230, W187A).
Assay [4] deals with NS1-FL (R38A/K41A/W187A), strain A/Puerto Rico/8/1934 H1N1 (influenza A virus, strain A/Puerto …, UniProt P03496 1-230, R38A | K41A | W187A).

Take “NS1-FL wild type (A/Puerto Rico/8/1934 H1N1) R38A; K41A”: in assay [1], the Kd is 25.2 µM. In turn, B1 registered an equilibrium dissociation constant (Kd) in assay [2] of 24.1 µM. On to B2, for which the Kd came out at 12.5 µM in assay [3] and 8.2 µM in assay [4].

As a reminder, the Kd is the free concentration of one partner at which half of the binding sites on the other are occupied at equilibrium, for simple one-to-one binding.

Source of the values: paper PMC5940772 (Nature Communications, 2018).
